# Library screen at single concentrations

Each number is a percent effect as filed.
How 0% and 100% were set is not recorded. Most values in the screen are low, and negative values occur.
This is part of a subset picked to be rich in strong results.

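Phenotypic screen: M. tuberculosis growth, cholesterol and DPPC medium, 4 days; the read-out is not stated. Compounds at 500 µM. Direction is inferred from retests: higher values go with more growth inhibition. Size under these conditions: about 18,000 compounds, about 900 of them at 50% or above in at least one test.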

SMILES	effect
CSCc1cccc(CNC(=O)c2ccon2)c1	39.82%
Cc1ccccc1OCCC(=O)NC1CCS(=O)(=O)C1 (configuration not stated)	-9.707%
O=C(NCCCOC(F)F)NCc1ccc(Br)o1	66.47%
N#CCCN(CCC#N)C(=O)COC(=O)c1ccoc1	-10.77%
Cc1nc(CN(C)C(=O)c2nc(C(C)C)cs2)no1	55.46%
CN(CCCN)c1ccccc1F	86.55%
COc1cc(Br)cc(C)c1NC(=O)CNC(C)=O	4.069%
CN(CCOc1ccccc1)C(=O)Nc1ccn(C)n1	36.63%
CCC(CO)(CO)NCc1csc(-c2cccs2)n1	63.42%
CC[S+]([O-])CC(=O)NCCc1nc2c(s1)CCCC2 (configuration not stated)	9.631%
CC(C)NC(=O)N1CCCC(S(C)(=O)=O)C1 (configuration not stated)	5.631%
CCNc1ncc(C(=O)N2CCCc3sccc3C2)s1	-6.316%
O=C(NCCn1cccc1)c1ccc(Cl)cn1	82.41%
CCn1nnc(NCc2ccccc2)n1	77.76%
COc1ccc(CCN2CCNCC2)cc1	8.484%
CCc1nccn1CCNC(=O)CN1CCCC1	-0.1216%
Cn1nnc(CNC(=O)C2CSc3ccccc3O2)n1 (configuration not stated)	27.28%
Cc1cccc(CCC(=O)N2CCNCC2)c1	8.858%
O=C1CCNC(C2CC2)C1 (configuration not stated)	-19.42%
c1ccc(COCCc2noc(C3CNC3)n2)cc1	112.2%
O=C(C1CCC1)N1CCCC1c1cccnc1 (configuration not stated)	-8.842%
NS(=O)(=O)CC1CCN(c2ncc(Br)cn2)CC1	88.88%
COCCOC1CCN(c2cc(N)nc(C)n2)CC1	-6.297%
Cc1csc(CCCNC(=O)Cn2nc(C)cc2N)n1	10.83%
COCC(C)Nc1cccc(F)c1C#N (configuration not stated)	56.83%
COc1ccc(CN)c(F)c1	-4.1%
OCC1CCN(CCc2ccccc2)C1 (configuration not stated)	65.49%
CC1CCN(S(=O)(=O)NC(C)C(C)C)CC1 (configuration not stated)	57.76%
CCN(CC)C(=O)Cn1nc(C)c(C#N)c1N	3.922%
CCc1noc(C)c1C(=O)NCCCN1CCOCC1	-1.139%
Cc1cccc(N2CCCC(N)C2)n1 (configuration not stated)	81.39%
c1cc(-c2ncco2)ccn1	-6.293%
COc1cc(C(=O)NC(C)CCO)ccc1OC(C)C (configuration not stated)	-2.519%
CC(O)COc1ccccc1CN (configuration not stated)	-3.582%
Cc1c[nH]c(C(C)NC(=O)c2ccc(CO)cc2)n1 (configuration not stated)	4.567%
CCc1nnc(NCCCc2cccnc2)o1	5.54%
NCc1ccc2[nH]c(=O)oc2c1	4.416%
CC(C)C(N)C1(CO)CC=CC1 (configuration not stated)	-30.98%
COC(=O)CCCC(=O)N1CCCc2ccc(F)cc21	48.01%
CN(C)C(=O)c1ccc(CN)cc1	-6.061%
O=C(Nc1ccc(F)cc1F)N(CCO)CCCO	-1.431%
Cc1ccccc1-n1nnnc1SCC(=O)NC1CC1	24.71%
O=C1C=CC(=O)N1Cc1ccc(Cl)cc1	113.7%
Cc1ccc(CN(CCCC(=O)NC(N)=O)C2CC2)o1	-18.53%
CCC(N)C(=O)N1CCN(c2cc(C)ccc2C)CC1 (configuration not stated)	-17.47%
CC(=O)NC(C)c1cccc(N2CCCC2=O)c1 (configuration not stated)	3.519%
OCC(O)CSCCc1ccccc1Cl (configuration not stated)	54.41%
O=C(Cc1cccc(O)c1)N(CCO)CC1CC1	-9.485%
Nc1ccc(N2CCNCC2)cn1	-7.047%
N#Cc1ccc(OCCN)cc1	16.82%
C[S+]([O-])c1nncn1CSCc1ccc(Cl)cc1 (configuration not stated)	48.5%
CS(=O)(=O)NC1CCCN(c2ccncc2Cl)C1 (configuration not stated)	-7.195%

Some entries from above, unchanged:

N#Cc1ccc(OCCN)cc1 gave 16.82%.
COCCOC1CCN(c2cc(N)nc(C)n2)CC1 gave -6.297%.
C[S+]([O-])c1nncn1CSCc1ccc(Cl)cc1 (configuration not stated) gave 48.5%.

The values are deposited in ChEMBL (CHEMBL3988442, “University of Dundee, Small-Polar-MMV Screening Library” (2021)).